Reference: US9708359B2, “Pyrrolopyrimidine nucleosides and analogs thereof” (Chimerix, Inc., priority 2015, dated 2017)
“And” between values parts separate entries of the source, which are not always exact repeats. Equal entries are not always repeated.

Test system: mouse norovirus
Test: Mouse Norovirus (MNV) assay in RAW cells
Conditions: CC50 divided by EC50, MNV in RAW cells

Row | Compound | SI
1 | C[C@@]1(O)[C@H](O)[C@@H](CO)O[C@H]1n1ccc(N)nc1=O [2′-C-Methyl Cytidine, reference compound] | 10.7
2 | Cc1nc(N)c2c(C(N)=O)cn([C@@H]3O[C@H](CO)[C@@H](O)[C@H]3O)c2n1 [Compound 1, 4-amino-7-((2R,3R,4S,5R)-3,4-dihydroxy-5-(hydroxymethyl)tetrahydrofuran-2-yl)-2-methyl-7H-pyrrolo[2,3-d]pyrimidine-5-carboxamide] | 57.0 and 54
